Reference: US9617289B2, “RSV antiviral compounds” (JANSSEN R&D IRELAND, priority 2012, dated 2017)

What follows are molecules tested on HeLa cells (assay: Cytotoxicity in HeLa cells (ATP content, ATPlite kit); SI calculated as CC50/EC50). Conditions: SI is calculated as CC50/EC50, three days.
Type: cell-based
In the case of `N#CCCCn1c(CN2C(=O)C3(CN(C(=O)[C@@H](O)CO)C3)c3ccccc32)cc2cc(Cl)ccc21` (single isomer, unassigned) [Compound 129], the SI_TOX-HELA_wt is reported as 144016. With `CC(C)(C)OC(=O)N1CCC2(CC1)C(=O)N(Cc1cc3cc(Cl)ccc3n1CCCS(C)(=O)=O)c1cnccc12` [Compound 1, tert-butyl 1′-({5-chloro-1-[3-(methylsulfonyl)propyl]-1H-indol-2-yl}methyl)-2′-oxo-1′,2′-dihydro-1H-spiro [piperidine-4,3′-pyrrolo[2,3-c]pyridine]-1-carboxylate] the SI was 19370. Work on `CS(=O)(=O)CCCn1c(CN2C(=O)C3(CCNCC3)c3ccncc32)cc2cc(Cl)ccc21` [Compound 2, 1′-({5-chloro-1-[3-(methylsulfonyl)propyl]-1H-indol-2-yl}methyl)spiro[piperidine-4,3′-pyrrolo[2,3-c]pyridin]-2′(1′H)-one] yielded an SI of over 2193.76. Work on `CS(=O)(=O)CCCn1c(CN2C(=O)C3(CCN(S(C)(=O)=O)CC3)c3ccncc32)cc2cc(Cl)ccc21` [Compound 3, 1′-({5-chloro-1-[3-(methylsulfonyl)propyl]-1H-indol-2-yl}methyl)-1-(methylsulfonyl)spiro[piperidine-4,3′-pyrrolo[2,3-c]pyridin]-2′(1′H)-one] yielded an SI of over 3.237e+006. `CC(C)(C)OC(=O)N1CC2(C1)C(=O)N(Cc1nc3cc(Cl)ccc3n1CCCS(C)(=O)=O)c1ccccc12` [Compound 4, tert-butyl 1′-({5-chloro-1-[3-(methylsulfonyl)propyl]-1H-benzimidazol-2-yl}methyl)-2′-oxo-1′,2′-dihydro-1H-spiro[azetidine-3,3′-indole]-1-carboxylate] was tested, and the SI was 654998. For `CS(=O)(=O)CCCn1c(CN2C(=O)C3(CNC3)c3ccccc32)nc2cc(Cl)ccc21` [Compound 5, 1′-({5-chloro-1-[3-(methylsulfonyl)propyl]-1H-benzimidazol-2-yl}methyl)spiro[azetidine-3,3′-indol]-2′(1′H)-one], the SI was over 20325. `CC(C)(O)C(=O)N1CC2(C1)C(=O)N(Cc1nc3cc(Cl)ccc3n1CCCS(C)(=O)=O)c1ccccc12` [Compound 6, 1′-({5-chloro-1-[3-(methylsulfonyl)propyl]-1H-benzimidazol-2-yl}methyl)-1-(2-hydroxy-2-methylpropanoyl)spiro[azetidine-3,3′-indol]-2′(1′H)-one] was tested, and the SI was over 220491. `CS(=O)(=O)CCCn1c(CN2C(=O)C3(CN(c4cccnc4)C3)c3ccccc32)nc2cc(Cl)ccc21` [Compound 7, 1′-({5-chloro-1-[3-(methylsulfonyl)propyl]-1H-benzimidazol-2-yl}methyl)-1-(pyridin-3-yl)spiro[azetidine-3,3′-indol]-2′(1′H)-one] showed an SI of over 3.591e+006. `CC(C)(O)CN1CC2(C1)C(=O)N(Cc1nc3cc(Cl)ccc3n1CCCS(C)(=O)=O)c1ccccc12` [Compound 8, 1′-({5-chloro-1-[3-(methylsulfonyl)propyl]-1H-benzimidazol-2-yl}methyl)-1-(2-hydroxy-2-methylpropyl)spiro[azetidine-3,3′-indol]-2′(1′H)-one] showed an SI of over 127462. With `CS(=O)(=O)CCCn1c(CN2C(=O)C3(CN(CC(F)(F)F)C3)c3ccccc32)nc2cc(Cl)ccc21` [Compound 9, 1′-[[5-chloro-1-(3-methylsulfonylpropyl)benzimidazol-2-yl]methyl]-1-(2,2,2-trifluoroethyl)spiro[azetidine-3,3′-indoline]-2′-one] the SI was over 234634. Work on `CS(=O)(=O)CCCn1c(CN2C(=O)C3(CCOCC3)c3ccc(F)cc32)nc2cc(Cl)ccc21` [Compound 10, 1-((5-chloro-1-(3-(methylsulfonyl)propyl)-1H-benzo[d]-imidazol-2-yl)methyl)-6-fluoro-2′,3′,5′,6′-tetrahydro-spiro[indoline-3,4′-pyran]-2-one] yielded an SI of 49544. `CS(=O)(=O)CCCn1c(CN2C(=O)C3(CC(O)C3)c3ccccc32)nc2cc(Cl)ccc21` [Compound 11, (3S)-1′-({5-chloro-1-[3-(methylsulfonyl)propyl]-1H-benzimidazol-2-yl}methyl)-3-hydroxyspiro[cyclobutane-1,3′-indol]-2′(1′H)-one] showed an SI of over 249735. `CS(=O)(=O)CCCn1c(CN2C(=O)C3(CC(O)C3)c3ccccc32)nc2cc(Cl)ccc21` [Compound 12, (3R)-1′-({5-chloro-1-[3-(methylsulfonyl)propyl]-1H-benzimidazol-2-yl}methyl)-3-hydroxyspiro[cyclobutane-1,3′-indol]-2′(1′H)-one] gave an SI of over 194729. Work on `CS(=O)(=O)CCCn1c(CN2C(=O)C3(CCOCC3)c3cc(F)ccc32)nc2cc(Cl)ccc21` [Compound 19] yielded an SI of over 21417.6. `CS(=O)(=O)CCCn1c(CN2C(=O)C3(CCN(c4ccc(Cl)nn4)CC3)c3cc(Br)ccc32)nc2cc(Cl)ccc21` [Compound 20, 5-bromo-1-((5-chloro-1-(3-(methylsulfonyl)propyl)-1H-benzo[d]imidazol-2-yl)methyl)-1′-(6-chloropyridazin-3-yl)spiro[indoline-3,4′-piperidin]-2-one] showed an SI of 1880. Molecule `CS(=O)(=O)CCCn1c(CN2C(=O)C3(CCN(C(=O)c4ccncc4)CC3)c3cc(Br)ccc32)nc2cc(Cl)ccc21` [Compound 22, 5-bromo-1-((5-chloro-1-(3-(methylsulfonyl)propyl)-1H-benzo[d]imidazol-2-yl)methyl)-1′-isonicotinoylspiro-[indoline-3,4′-piperidin]-2-one] has an SI of 3515. With `CC(C)(C)OC(=O)N1CCC2(CC1)C(=O)N(Cc1nc3cc(Cl)ccc3n1CCCS(C)(=O)=O)c1ccc(Br)cc12` [Compound 23, tert-butyl 5-bromo-1-((5-chloro-1-(3-(methyl-sulfonyl)propyl)-1H-benzo[d]imidazol-2-yl)methyl)-2-oxospiro[indoline-3,4′-piperidine]-1′-carboxylate] the SI was 606. In the case of `CS(=O)(=O)CCCn1c(CN2C(=O)C3(CCNCC3)c3c(Cl)cccc32)nc2cc(Cl)ccc21` [Compound 26, 4-chloro-1-({5-chloro-1-[3-(methylsulfonyl)propyl]-1H-benzimidazol-2-yl}methyl)spiro[indole-3,4′-piperidin]-2(1H)-one], the SI is reported as 164. In the case of `CC(C)C(=O)N1CC2(C1)C(=O)N(Cc1nc3cc(Cl)ccc3n1CCCS(C)(=O)=O)c1ccccc12` [Compound 28, 1′-({5-chloro-1-[3-(methylsulfonyl)propyl]-1H-benzimidazol-2-yl}methyl)-1-(2-methylpropanoyl)-spiro[azetidine-3,3′-indol]-2′(1′H)-one], the SI is reported as over 660861. In the case of `CS(=O)(=O)CCCn1c(CN2C(=O)C3(CN(S(=O)(=O)C4CC4)C3)c3ccccc32)nc2cc(Cl)ccc21` [Compound 29, 1′-({5-chloro-1-[3-(methylsulfonyl)propyl]-1H-benzimidazol-2-yl}methyl)-1-(cyclopropylsulfonyl)-spiro[azetidine-3,3′-indol]-2′(1′H)-one], the SI is reported as over 660861. `CC(=O)N1CC2(C1)C(=O)N(Cc1nc3cc(Cl)ccc3n1CCCS(C)(=O)=O)c1ccccc12` [Compound 30, 1-acetyl-1′-({5-chloro-1-[3-(methylsulfonyl)propyl]-1H-benzimidazol-2-yl}methyl)spiro[azetidine-3,3′-indol]-2′(1′H)-one] showed an SI of over 405070.

The amount applied is not stated for every result.
